Results of unrelated studies side by side (data: NIAID ChemDB).

Common to all: toxicity to cultured cells; cells: MT-4; endpoint: CC50

Conditions beyond the fields shown may differ between rows.

SMILES | read by | result
C1CNCCNCCCNCCNC1 | - | >100 µM
Cc1cc(C#N)cc(C)c1Oc1nc(Nc2ccc(C#N)cc2)nc(N)c1Br | - | >100 µM
Clc1ccc2c(c1)Nc1ccccc1S2 | - | >500 µg/mL
C=CCNC(=O)C1C(=O)N(O)C(=O)c2ccccc21 | MTT | 129 µM
Cc1c(Cc2cccc3ccccc23)nc(NC(C)C)[nH]c1=O | MTT | 54 µM
Cc1cn([C@H]2C[C@H](N=[N+]=[N-])[C@@H](CO)O2)c(=O)[nH]c1=O | - | >7.5 µM
Cc1cn([C@@H]2O[C@H](CO[Si](C)(C)C(C)(C)C)C3(OS(=O)(=O)C=C3N)[C@H]2O[Si](C)(C)C(C)(C)C)c(=O)n(C)c1=O | - | 230 µM
O=c1[nH]cnc2c1ncn2CCOCP(=O)(O)O | - | >625 µM
C=CC(C)(C)c1c(O)cc(O)c2c(=O)c(O)c(-c3cc(O)c(O)c(CC=C(C)C)c3CC=C(C)C)oc12 | - | 20 µg/mL
Nc1ncnc2c1ncn2[C@H]1C[C@@H](OCP(=O)(O)O)CO1 | tetrazolium | >316 µM
NCCCCCN1CCCN(CCCCCN)CCCN(CCCCCN)CCN(CCCCCN)CCC1 | - | 50 µM
Nc1ncnc2c1ncn2[C@@H]1C=C[C@@H](O)[C@H]1O | trypan blue | 0.9 µg/mL
Cc1cn([C@@H]2O[C@@H](CO)C[C@@H]2O)c(=O)[nH]c1=O | - | >1000 µM
Nc1ncc(CC2(CO)CCC2)c(=O)[nH]1 | - | >100 µM
Cc1ccc(CNC(=O)C2C(=O)N(O)C(=O)c3ccccc32)cc1 | MTT | 127 µM
CCN1c2ccccc2Sc2ccccc21 | - | >500 µg/mL
Cc1cn([C@@H]2O[C@@H](CO)[C@@H](N)[C@H]2O)c(=O)[nH]c1=O | - | >1000 µM
CCCCCCCCCCCCNC(=O)C1C(=O)N(O)C(=O)c2ccccc21 | MTT | 18.55 µM
O=c1ccn([C@@H]2OC[C@H](OCP(=O)(O)O)[C@H]2O)c(=O)[nH]1 | tetrazolium | >155 µM
Nc1nccc2c1ncn2[C@@H]1C=C[C@@H](O)[C@H]1O | trypan blue | 3.3 µg/mL
N=c1ncn([C@H]2CC[C@@H](CO)O2)c2nc[nH]c12 | - | >500 µM
CC(C)=CCC1(CC=C(C)C)C=C([C@@H]2COc3c(ccc4c3C=CC(C)(C)O4)C2)C(O)=CC1=O | - | 30 µg/mL
NCCCN1c2ccccc2Sc2ccc(Cl)cc21 | - | 9.3 µg/mL
O=c1[nH]cnc2c1ncn2C[C@@H](CO)OCP(=O)(O)O | - | >125 µM
c1ccc(CNCCCCCN2CCCN(CCCCCNCc3ccccc3)CCCN(CCCCCNCc3ccccc3)CCN(CCCCCNCc3ccccc3)CCC2)cc1 | - | 10 µM
C=CCn1c(=O)c(C)cn([C@@H]2O[C@H](CO[Si](C)(C)C(C)(C)C)C3(OS(=O)(=O)C=C3N)[C@H]2O[Si](C)(C)C(C)(C)C)c1=O | - | >330 µM
C#C[C@]1(CO)O[C@@H](n2cc(C)c(=O)[nH]c2=O)[C@@H](O)[C@@H]1O | - | >400 µM
O=C(NCCCN1CCCN(CCCNC(=O)OCc2ccccc2)CCCN(CCCNC(=O)OCc2ccccc2)CCN(CCCNC(=O)OCc2ccccc2)CCC1)OCc1ccccc1 | - | 50 µM
O=C(O)P(=O)(O)O | - | 3493 µM
Cc1cn([C@H]2C=C[C@H](CO)O2)c(=O)[nH]c1=O | - | 10 µM
CC1(C)S[C@H]([C@H](NC(=O)Cc2ccccc2)C(=O)NCc2ccccc2)N[C@H]1C(=O)N[C@H](Cc1ccccc1)[C@H](O)CC(=O)NCCCO | - | >100 µM
CS(=O)(=O)NCCCN1c2ccccc2Sc2ccc(Cl)cc21 | - | >500 µg/mL
CCN(CC)c1nc(Cc2cccc3ccccc23)c(C)c(=O)[nH]1 | MTT | >388.9 µM
C#CC1(CO)O[C@@H](n2c(Cl)nc3c(=O)[nH]c(N)nc32)[C@H](O)[C@@H]1O | - | >400 µM
CC(=O)SCCOP(=O)(OCCSC(C)=O)OC[C@@H]1CC[C@H](n2cnc3c(N)ncnc32)O1 | - | 16 µM
CCc1c(Cc2cccc3ccccc23)nc(Nc2ccc(Cl)cc2)[nH]c1=O | MTT | ≥152.1 µM
NCCCCCN1CCCN(CCCCCN)CCN(CCCCCN)CCCN(CCCCCN)CC1 | - | 10 µM
CC1(C)S[C@H]([C@H](NC(=O)Cc2ccccc2)C(=O)NCc2ccccc2)N[C@H]1C(=O)N[C@H](Cc1ccccc1)[C@H](O)CC(=O)N[C@H](CO)Cc1ccccc1 | - | >100 µM
Nc1ncnc2c1ncn2[C@@H]1OC[C@H](OCP(=O)(O)O)[C@H]1O | tetrazolium | >268 µM
CC(C)(C)C(=O)SCCOP(=O)(OCCSC(=O)C(C)(C)C)OCC1(Cc2cnc(N)[nH]c2=O)CCC1 | - | 89.5 µM
Cc1cn([C@H]2C[C@H](N=[N+]=[N-])[C@@H](CO)O2)c(=O)[nH]c1=O | - | 72 µM
CC1(C)S[C@H]([C@H](NC(=O)Cc2ccccc2)C(=O)NCc2ccccc2)N[C@H]1C(=O)N[C@H](Cc1ccccc1)[C@H](O)CC(=O)NCC(O)CO | - | >100 µM
NC(=O)C[C@H](NC(=O)OCc1ccccc1)C(=O)N[C@@H](Cc1ccccc1)C(=O)C(F)(F)CCc1ccccc1 | - | >100 µM
NCCCCN1CCCN(CCCCN)CCCN(CCCCN)CCN(CCCCN)CCC1 | - | 10 µM
C#CC1(CO)O[C@@H](n2cc(C)c(=O)[nH]c2=O)[C@H](O)[C@@H]1O | - | >400 µM
CN(CCO)c1ccc(-c2nc3ccccc3c(=O)[nH]2)cc1 | MTT | 42.2 µM
O=C1c2ccccc2C(=O)N1CCCN1c2ccccc2Sc2ccc(Cl)cc21 | - | 500 µg/mL
C#C[C@]1(CO)O[C@@H](n2cc(CC)c(=O)[nH]c2=O)C[C@@H]1O | - | >400 µM
CC(C)CNC(=O)C[C@@H](O)[C@@H](Cc1ccccc1)NC(=O)[C@@H]1N[C@@H]([C@H](NC(=O)Cc2ccccc2)C(=O)NCc2ccccc2)SC1(C)C | - | >100 µM
CC(C)[C@H](NC(=O)OCc1ccccn1)C(=O)N[C@@H](Cc1ccccc1)C(=O)C(F)(F)CCc1ccccc1 | - | 21 µM
C#C[C@]1(CO)O[C@@H](n2cnc3cncnc32)C[C@@H]1O | - | >400 µM
Nc1nc(=O)n([C@@H]2CS[C@H](CO)O2)cc1F | - | >200 µM
CCSC[C@H]1O[C@@H](n2cc(C)c(=O)[nH]c2=O)C[C@@H]1N=[N+]=[N-] | - | 69.2 µg/mL
C=CC1=C(C)C(/C=c2/[nH]/c(=C/c3[nH]c(/C=C4/NC(=O)C(C)=C4C=C)c(C)c3CCC(=O)O)c(CCC(=O)O)c2C)=NC1=O | - | >800 µg/mL
Nc1ccn([C@H]2CC[C@@H](CO)O2)c(=O)n1 | - | 165 µM
O=C1C=C2C(C3CC4=C(C5CC6=C(C7CC8=CC(=O)O[C@@]89C[C@@H]7N7CCCC79)C(=O)O[C@@]67C[C@@H]5N5CCCC57)C(=O)O[C@@]45C[C@@H]3N3CCCC35)=C[C@@H]3C[C@@]2(O1)C1CCCN13 | MTT | >100 µM
Nc1nc(N)c2ncn(C[C@@H](CO)OCP(=O)(O)O)c2n1 | - | 90 µM
Cc1cn([C@H]2C[C@H](N=[N+]=[N-])[C@@H](CO)O2)c(=O)[nH]c1=O | - | 280.5 µM
CC(C)=CCc1c(O)cc(CCc2ccc(O)c(O)c2)c(CC=C(C)C)c1O | - | 2 µg/mL
CC1(C)S[C@H]([C@H](NC(=O)Cc2ccccc2)C(=O)NCc2ccccc2)N[C@H]1C(=O)N[C@H](Cc1ccccc1)[C@H](O)CC(=O)N[C@@H](CO)Cc1ccccc1 | - | >100 µM
Nc1ncnc2c1ncn2CCOCP(=O)(O)O | - | 67 µM
Cc1cn([C@H]2C[C@H](N=[N+]=[N-])[C@@H](CSCCC(=O)O)O2)c(=O)[nH]c1=O | - | 125 µg/mL
COc1cc(O)cc2c1[C@@H]1Oc3c(ccc(O)c3CC=C(C)C)[C@@H]1CO2 | - | 12 µg/mL
Cc1c(Cc2cccc3ccccc23)nc(NC2CCCCC2)[nH]c1=O | MTT | 40.21 µM
Nc1ccn([C@@H]2OC[C@H](OCP(=O)(O)O)[C@H]2O)c(=O)n1 | tetrazolium | >308 µM
C#C[C@@]1(CO)C=C[C@H](n2cc(C)c(=O)[nH]c2=O)S1 | MTT | >100 µM
Nc1ncnc2c(CC3(CO)CCC3)c[nH]c12 | - | >100 µM
Nc1ncnc2ncn(CCOCP(=O)(O)O)c12 | - | >300 µg/mL
Nc1ccn([C@@H]2O[C@H](CO)C[C@@H]2F)c(=O)n1 | - | 872 µM
O=c1[nH]cnc2c1ncn2[C@H]1CC[C@@H](CO)O1 | - | >100 µM
CCNC(=O)[C@@H](NC(=O)Cc1ccccc1)[C@@H]1N[C@@H](C(=O)NCCNC(=O)[C@@H]2N[C@@H]([C@H](NC(=O)Cc3ccccc3)C(=O)NCC)SC2(C)C)C(C)(C)S1 | - | >128 µM
Nc1ccn([C@H]2CC[C@@H](CO)O2)c(=O)n1 | - | 73.9 µM
CC(C)[C@H](NC(=O)NCc1ccccn1)C(=O)N[C@@H](Cc1ccccc1)C(=O)C(F)(F)CCc1ccccc1 | - | >100 µM
O=c1[nH]c(-c2ccc3[nH]ncc3c2)nc2ccccc12 | MTT | 42.6 µM
Cc1c(Cc2cccc3ccccc23)nc(N2CC2)[nH]c1=O | MTT | 391 µM
O=C(NCc1ccc(F)cc1)C1C(=O)N(O)C(=O)c2ccccc21 | MTT | >125 µM
CCN(CC)c1nc(Cc2cccc3ccccc23)cc(=O)[nH]1 | MTT | ≥72.22 µM
NCCCCCCN1CCCN(CCCCCCN)CCN(CCCCCCN)CCCN(CCCCCCN)CC1 | - | 50 µM
NC(N)=NCCC[C@H]1/C=C/[C@H](Cc2ccc3ccccc3c2)C(=O)NCC(=O)N[C@H](Cc2ccc(O)cc2)C(=O)N[C@@H](CCCN=C(N)N)C(=O)N1 | MTT | >100 µM
C=CCn1c(=O)c(C)cn([C@@H]2O[C@H](CO[Si](C)(C)C(C)(C)C)C3(OS(=O)(=O)C=C3N)[C@H]2O[Si](C)(C)C(C)(C)C)c1=O | - | ≥300 µM
Nc1nc(N)c2ncn(CCOCP(=O)(O)O)c2n1 | - | 18 µM
Cc1cn([C@@H]2O[C@@H](CO)[C@H](N=[N+]=[N-])[C@@H]2O)c(=O)[nH]c1=O | - | >1000 µM
CCc1nc(SC)n(COCc2ccccc2)c1Cc1ccccc1 | MTT | 34 µM
CC(=O)SCCOP(=O)(OCCSC(C)=O)OC[C@H]1O[C@@H](n2cc(C)c(=O)[nH]c2=O)C[C@@H]1N=[N+]=[N-] | - | 76 µM
Cc1cn([C@@H]2OC[C@H](OCP(=O)(O)O)[C@H]2O)c(=O)[nH]c1=O | tetrazolium | >328 µM
Cc1cn([C@@H]2O[C@H](CO)C3(OS(=O)(=O)C=C3N)[C@H]2O)c(=O)[nH]c1=O | - | >300 µM
NC(=O)P(=O)(O)OCC1O[C@H](n2ccc(N)nc2=O)CS1 | MTT | >2974 µM

CCn is the concentration with n% toxicity to the cells. An empty or dashed field is not shown.